Results deposited as PubChem BioAssay AID624099 (ICCB-Longwood, 2012)
Assay: 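Host factors E2 relies on to silence an HPV18 LCR reporter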 (primary screen). Cell system: human C33A cervical carcinoma cells (HPV-negative) stably expressing BPV1 E2 and an HPV18 LCR luciferase reporter. Reagent: siRNA pool against human genes, 40 nM. Duration: 72 h. Measurement: 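Per-well luciferase luminescence, z-scored on each plate against the plate mean and SD with control wells left out, then averaged across three replicate plates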. Direction: mean z-score and z-score: higher = stronger reporter signal, weaker E2 silencing. Call rule: 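Hit if mean z-score reaches 2 and two or more of three replicate z-scores also reach 2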.
This is a random part of about 21,000 reagents tested. Of all reagents, 497 (2.4%) were called active. 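Higher z means weaker E2 silencing; only reporter increases were scored, and knock-downs that hurt cell survival may mask genuine repressor factors.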 A number with no mark means an inactive call.

Target gene | PubChem SID | mean z-score | z-score, replicate A | z-score, replicate B | z-score, replicate C
PDCL3 | SID134318453 | 1.6 | 1.81 | 1.54 | 1.44
GPATCH4 | SID134317255 | 0.64 | 0.76 | 0.47 | 0.7
STATH | SID134316916 | 0.23 | 0.31 | 0.05 | 0.35
PTK2B | SID56478543 | -0.36 | -0.53 | -0.37 | -0.18
LOC387943 (retired record) | SID134328419 | -1.24 | -1.36 | -1.13 | -1.21
KIAA1328 | SID134325688 | 0.81 | 0.54 | 0.85 | 1.02
PDCD5 | SID134310472 | 0.42 | 0.74 | 0.06 | 0.44
C2orf69 | SID134322482 | 0.25 | 0.67 | -0.18 | –
CCDC85C | SID134317948 | 1.88 | 1.75 | 2.13 | 1.77
CCDC85C | SID134321810 | 0.44 | 0.72 | 0.51 | 0.1
DRP2 | SID134315967 | -0.01 | -0.45 | 0.27 | 0.16
CAMSAP3 | SID134325935 | 0.53 | 0.99 | 0.46 | 0.14
PKIB | SID56479212 | 0.17 | 0.31 | 0.29 | -0.1
DSN1 | SID134322258 | 0.62 | 0.8 | 0.46 | 0.62
UFL1 | SID134318215 | -0.29 | -0.54 | -0.02 | -0.29
KCTD9 | SID134324271 | 0.23 | 0.01 | 0.23 | 0.45
SLC25A33 | SID134312414 | 1.05 | 0.98 | 1.09 | 1.09
LOC400813 (retired record) | SID134327078 | -1.3 | -0.77 | -1.24 | -1.89
UTP18 | SID134324614 | 0.45 | 0.04 | 0.79 | 0.52
POM121L1P | SID134321553 | 0.09 | 0.12 | 0.32 | -0.17
POM121L1P | SID134324275 | 0.39 | 0.27 | 0.3 | 0.62
MTMR14 | SID134320127 | -0.88 | -0.56 | -1.21 | -0.86
ITGB1BP2 | SID134324980 | -1.38 | -1.09 | -1.24 | -1.83

3 consecutive records already listed, for reference:
Target gene | PubChem SID | mean z-score | z-score, replicate A | z-score, replicate B | z-score, replicate C
C2orf69 | SID134322482 | 0.25 | 0.67 | -0.18 | –
CCDC85C | SID134317948 | 1.88 | 1.75 | 2.13 | 1.77
CCDC85C | SID134321810 | 0.44 | 0.72 | 0.51 | 0.1
